What was measured:
[1] = biological target: T1, PFO containing an N-terminal avi tag (Clostridium perfringens); experiment: yeast surface titration with avi-tagged PFO, flow cytometry
[2] = biological target: T1, PFO containing an N-terminal avi tag; experiment: yeast surface titration with avi-tagged PFO, flow cytometry, pH 7.4, curve-fit
[3] = biological target: T1, PFO containing an N-terminal avi tag; experiment: yeast surface titration with avi-tagged PFO, flow cytometry, pH 5.5, curve-fit
[4] = biological target: T1, PFO containing an N-terminal avi tag; experiment: yeast-surface titration against PFO (wild-type)
[5] = biological target: T1, PFO containing an N-terminal avi tag; experiment: yeast-surface titration against PFO (wild-type), pH 5.5
[6] = biological target: T1, PFO containing an N-terminal avi tag; experiment: yeast-surface titration against PFO (wild-type), pH 7.4

B1: Clone 2.2-12 (designed binder)
chain: ASDVPRDLEVVAATPTSLLISWRFPAYWGADSYRITYGETGGNSPVQEFTVPSSVSSATISGLKPGVDYTITVYAVTWCGFYYCHSRPTSINYRTEIDKPSQ
[1]
  fold difference of KD between pH 7.4 and pH 5.5: 10 fold

B2: Clone 2.2-7 (designed binder)
chain: VSDVPRDLEVVAATPTSLLISWFNPHSCSYRITYGETGGNSPVQEFTVPASSTATISGLKPGVDYTITVYAVTWRCYSVPISINYRTEVDKPSQ
[2]
  Kd: 6.7 nM
[3]
  Kd: 108 nM

B3: Clone 2.2.12F (designed binder)
chain: ASASDVPRDLEVVAATPTSLLISWRFPAYRGVDSYRITYGETGGNSPVQEFTVPSSVSSATISGLKPGVDYTITVYAVTWCSFYYCHSRPTSINYRTEIDKPSQGS
[4]
  fold higher affinity at pH 7.4 compared to pH 5.5: 10 fold
[5]
  Kd: 5.7 nM
  fold higher binding affinity than clone 2.2.12: ~23 fold
[6]
  Kd: 0.51 nM
  fold higher binding affinity than clone 2.2.12: ~25 fold
